{"source": "paper PMC3972754", "about": "(European biophysics journal : EBJ, 2013)", "test_system": "N[C@@H](Cc1ccccc1)C(=O)O", "test": "purified protein", "conditions": "20 °C, 0.1 M Na-HEPES pH 7.4, O2 saturated, FeSO4, 350 µM DMPH4"}
{"substance": "cPAH (phenylalanine hydroxylase from Chromobacterium violaceum) (Chromobacterium violaceum ATCC 12472; F258A)", "values": [{"measurement": "Km", "result": "467.5 ± 99.6", "unit": "µM"}, {"measurement": "kcat", "result": 10.9, "unit": "s⁻¹"}, {"measurement": "kcat/Km", "result": 14000, "unit": "M⁻¹ s⁻¹"}]}
